Measurements from PMC10979478, “Deciphering the Biosynthesis and Physiological Function of 5-Methylated Pyrazinones Produced by Myxobacteria” (ACS Central Science, 2024).

Test system: CorB
Assay: Enzymatic cleavage using CorB (HPLC-DAD)
Type: biochemical, Corallococcus exiguus SDU70
Settings: 0.22 mM CorB, 37 °C, 12 hours

Structure (SMILES) | enzymatic hydrolysis by CorB | enzymatic hydrolysis by CorB (listed as 1b')
CC(=O)[C@@H](NC(=O)[C@H](CC(C)C)NC(=O)OC(C)(C)C)C(C)C [1b′] | remained unchanged | no enzymatic reaction happened
Cc1nc(CC(C)C)c(=O)[nH]c1C(C)C [compound 1, coralinone A] | no enzymatic reaction happened; also recorded: remained unchanged | 
CC[C@H](C)c1[nH]c(=O)c(CC(C)C)nc1C [compound 2, coralinone B] | no enzymatic reaction happened | 

“Also recorded” adds a separate entry of the source. Some entries repeat one wording, which the source may state once for all of them.
